Test system: RLR/MAVS pathway
Assay: Reovirus-induced IFN expression in T84 cells, qPCR
Assay type: cell-based, human
Details: T84 cells pretreated 1 hr, infected with Type III Dearing Strain reovirus for 5 hours; FIG. 3

Substance: GNRDTLWHLFNTLQRRPGWVEYFI-RQIKIWFQNRRMKWKK
- Reovirus-induced Type I and Type III IFN expression: prevented
